HIV-1 1203 Vif substitutions under APOBEC3G selection

Data from the supplement of Langley et al. 2025, preprint, doi:10.1101/2025.10.20.683452.

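A pool of vif mutants was passaged twice, 72 h each, on SupT1 cells that express APOBEC3G. Frequencies after the second round, in three biological replicates, were compared with the merged pool after the first round. Changes do not touch integrase, since the pol overlap was removed.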

Protein: Vif of HIV-1 1203 (a subtype B primary isolate). Residues 12-115 were scanned and are shown below; the first letter is residue 12.
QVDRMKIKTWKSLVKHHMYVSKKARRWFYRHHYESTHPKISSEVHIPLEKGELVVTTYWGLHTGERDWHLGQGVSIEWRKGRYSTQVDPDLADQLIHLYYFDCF

Scale: log2 enrichment, wild type = 0; negative values mean that the variant was depleted. Each entry names the wild-type residue, its position and the residue put in its place. This list holds changes to arginine only. The median of three replicates is given. Input reads are the counts in the merged round-one pool, before selection. The authors note that some positive scores may be noise, and some enriched variants failed when tested singly.

* K19R (input reads 1153) = -0.73
* K22R (input reads 22) = -0.29
* L24R (input reads 300) = -2.26
* H28R (input reads 283) = -1.78
* M29R (input reads 231) = -2.53
* Y30R (input reads 546) = -1.39
* V31R (input reads 42) = 0.01
* K33R (input reads 55) = 2.81
* K34R (input reads 1398) = 0.51
* W38R (input reads 863) = -1.63
* F39R (input reads 343) = -1.38
* H42R (input reads 30) = -1.74
* Y44R (input reads 240) = -2.53
* S46R (input reads 573) = 0.15
* K50R (input reads 32) = -0.74
* I51R (input reads 171) = -2.37
* P58R (input reads 276) = -2.06
* L59R (input reads 231) = -1.90
* V66R (input reads 176) = -1.81
* T68R (input reads 185) = -0.98
* H73R (input reads 38) = -3.30
* T74R (input reads 38) = 2.12
* G75R (input reads 74) = 3.47
* G82R (input reads 190) = -2.14
* Q83R (input reads 869) = -1.84
* G84R (input reads 53) = -1.37
* V85R (input reads 600) = -2.42
* I87R (input reads 497) = -0.23
* E88R (input reads 29) = 0.60
* K91R (input reads 16) = -0.89
* S95R (input reads 84) = 0.63
* T96R (input reads 21) = -0.69
* Q97R (input reads 21) = 0.68
* L102R (input reads 40) = 2.46
* D104R (input reads 114) = -1.69
* Q105R (input reads 165) = -3.00
* L106R (input reads 616) = -2.34
* Y110R (input reads 203) = -2.92
* F112R (input reads 23) = -1.41
* D113R (input reads 23) = 0.71
* C114R (input reads 171) = -2.09
* F115R (input reads 251) = 1.08

The scan is noisy: the rank correlation of replicates is about 0.4 to 0.65, and variants with under about 50 input reads tend to read too high. Some changes are missing from the data or left out.